Source: publication PMC7053198 (Theranostics, 2020)

Experiment: peptide synthesis
Details: conjugation step; for final HPLC purity: 254 nm

## NT- peptide- SG3249
  conjugation yield: 43%
  final HPLC purity: 92.5%

## A20FMDV2- SG3249
  conjugation yield: 54%
  final HPLC purity: 93.1%
